Values joined by “and” are separate entries in the source; they are usually repeats but may differ in a detail not shown here. Equal values may be shown once.
Experiments:
[1] = molecular target: T1, LasR (Pseudomonas aeruginosa, UniProt P25084)
[2] = molecular target: T2, TraR (Agrobacterium tumefaciens, UniProt P33905)
[3] = molecular target: T1, LasR; details: for IC50: read-out: LasR IC50, determined against 7.5 nM OdDHL
[4] = molecular target: T2, TraR; remark: listed apart in the source

By UniProt entry, the sequences of proteins in these tests, tags left out.
UniProt P25084, whole entry: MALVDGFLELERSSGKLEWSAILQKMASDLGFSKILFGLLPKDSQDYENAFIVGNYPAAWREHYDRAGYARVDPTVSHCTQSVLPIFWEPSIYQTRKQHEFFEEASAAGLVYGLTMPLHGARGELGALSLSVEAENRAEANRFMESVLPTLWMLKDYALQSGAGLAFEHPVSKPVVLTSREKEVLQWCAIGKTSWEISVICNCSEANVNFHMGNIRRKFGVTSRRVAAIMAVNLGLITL
UniProt P33905, whole entry: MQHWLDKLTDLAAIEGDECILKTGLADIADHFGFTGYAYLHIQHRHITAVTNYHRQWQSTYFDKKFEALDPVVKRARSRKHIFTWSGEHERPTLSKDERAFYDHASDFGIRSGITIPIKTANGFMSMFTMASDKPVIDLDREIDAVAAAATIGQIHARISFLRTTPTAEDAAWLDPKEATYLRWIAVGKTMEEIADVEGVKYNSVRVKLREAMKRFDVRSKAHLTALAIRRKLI

`CC(C)(C)OC(=O)Nc1ccc(CC(=O)N[C@H]2CCOC2=O)cc1` showed an EC50 ([1]; read-out: LasR EC50) greater than 200 µM.
`O=C(CCCc1ccccc1)N[C@H]1CCOC1=O` was tested, and the IC50 ([2]; read-out: TraR IC50, determined against 100 nM OOHL) was 1.12 µM.
For `O=C(Cc1cccc(Br)c1)N[C@H]1CCOC1=O`, the “E. coli-LasR Activation [%]” value ([1]; 5 μM ligand, E. coli DH5α (pJN105L pSC11), normalized to OdDHL) was 3% and 2% and the IC50 [3] was 4.06 µM.
`CCCCCC(=O)CC(=O)N[C@H]1CCOC1=O` [compound 1, N-(3-oxo-octanoyl)-L-homoserine lactone] was tested, and the “LasR: concentration at which the compound elicits its maximal inhibition (value in parentheses)” value ([3]; against 7.5 nM OdDHL, dose response curve did not reach 100% inhibition) was 2.0 µM, the “A. tumefaciens-TraR Inhibition [%]” value ([2]; 10 μM synthetic ligand against 100 nM OOHL, A. tumefaciens WCF47 (pCF372), normalized to OOHL) was 59% and the EC50 ([4]; read-out: TraR EC50) was 0.25 µM.
With `O=C(Cc1cccc(Cl)c1)N[C@H]1CCOC1=O` the IC50 [3] was 3.97 µM and the “A. tumefaciens-TraR Activation [%]” value ([4]; 10 μM ligand, A. tumefaciens WCF47 (pCF372), normalized to OOHL) was 0%.

From patent US7910622B2, “Modulation of bacterial quorum sensing with synthetic ligands” (Wisconsin Alumni Research Foundation, priority 2007, dated 2011)
